# Measurements reported in PubChem BioAssay AID624099 (ICCB-Longwood, 2012)
# Screen: 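Human genes that papillomavirus E2 requires to repress the HPV18 LCR promoter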 (primary screen)
# Cells: human C33A cervical carcinoma cells (HPV-negative) stably expressing BPV1 E2 and an HPV18 LCR luciferase reporter
# Reagent: siRNA pool against human genes, 40 nM
# Duration: 72 h
# Measurement: 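Per-well luciferase luminescence, z-scored on each plate against the plate mean and SD with control wells left out, then averaged across three replicate plates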
# Reading the numbers: mean z-score and z-score: higher = stronger reporter signal, weaker E2 silencing
# Active means: 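Hit if mean z-score reaches 2 and two or more of three replicate z-scores also reach 2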
# The whole screen tested about 21,000 reagents; this is a part drawn at random. Of all reagents, 497 (2.4%) were called active. 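Higher z means weaker E2 silencing; only reporter increases were scored, and knock-downs that hurt cell survival may mask genuine repressor factors.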
target,mean z-score,"z-score, replicate A","z-score, replicate B","z-score, replicate C",activity call
PCDHA1 (GeneID 56147),-0.46,-0.42,-0.66,-0.31,inactive
TMEM108 (GeneID 66000),-0.98,-1.19,-0.98,-0.78,inactive
PCSK9 (GeneID 255738),0.89,0.88,0.89,0.89,inactive
TMEM121B (GeneID 27439),0.61,0.65,0.88,0.31,inactive
ZNF321P (GeneID 399669),-0.62,-0.28,-0.84,-0.74,inactive
CDC16 (GeneID 8881),-0.83,-0.76,-0.69,-1.05,inactive
PTPRK (GeneID 5796),-0.45,-0.27,-0.53,-0.56,inactive
RTBDN (GeneID 83546),0.17,0.05,0.18,0.28,inactive

The list goes on, starting with the last 2 of the part before.
target,mean z-score,"z-score, replicate A","z-score, replicate B","z-score, replicate C",activity call
PTPRK (GeneID 5796),-0.45,-0.27,-0.53,-0.56,inactive
RTBDN (GeneID 83546),0.17,0.05,0.18,0.28,inactive
KLHDC8A (GeneID 55220),0.26,0.08,0.32,0.4,inactive
PGM1 (GeneID 5236),-0.93,-1.17,-0.78,-0.84,inactive
CHEK2 (GeneID 11200),0.39,-0.01,0.55,0.63,inactive
NOP56P2 (GeneID 402360),0.17,-0.09,0.48,0.13,inactive
XPO1 (GeneID 7514),-1.28,-1.24,-1.27,-1.33,inactive
ATP5PO (GeneID 539),0.35,0.29,0.27,0.5,inactive
HBS1L (GeneID 10767),0.34,0.54,0.25,0.23,inactive
CSRNP3 (GeneID 80034),0.2,-0.13,0.31,0.42,inactive
LGALS4 (GeneID 3960),0.26,0.56,-0.06,0.29,inactive
RIOX2 (GeneID 84864),1.36,1.04,,1.68,inactive
PTK2B (GeneID 2185),-0.36,-0.53,-0.37,-0.18,inactive
S100A16 (GeneID 140576),0.08,-0.25,0.18,0.31,inactive
RAP1GAP2 (GeneID 23108),0.87,0.93,0.88,0.81,inactive
XKRX (GeneID 402415),-0.25,0.05,-0.52,-0.26,inactive
RNF7 (GeneID 9616),-0.08,0.04,-0.28,0.01,inactive
